Experimental data reported in patent US20140342996A1, “Treatments for gastrointestinal disorders” (published 2014).

Assays:
[1] = target: Guanylate cyclase C (GC-C) on human T84 cells (human), P25092; assay: cell-based or functional assay
[2] = target: Guanylate cyclase C (GC-C) on human T84 cells (human), P25092; assay: competitive radioligand binding, [125I]-STp on intact T84 cells
[3] = target: Guanylate cyclase C (GC-C) on human T84 cells (human), P25092; assay: competitive radioligand binding, [125I]-STp on intact T84 cells, pH 5
[4] = target: Guanylate cyclase C (GC-C) on human T84 cells (human), P25092; assay: competitive radioligand binding, [125I]-STp on intact T84 cells, pH 8

CCELCCNPACTGCY (modifications not checked) [Peptide 1]
EC50 nM, cGMP response in T84 cells, pH 5 [1]: 13.4 nM | EC50 nM, cGMP response in T84 cells, pH 8 [1]: 114 nM | Ratio EC50 pH 8/EC50 pH 5, cGMP response in T84 cells [1]: 8.5 | Ratio Ki pH 8/Ki pH 5 [2]: 0.69 | Ki [3]: 2.9 nM | Ki [4]: 2 nM

DDDCCELCCNPACTGC (modifications not checked) [Peptide 20]
Ratio EC50 pH 8/EC50 pH 5, cGMP response in T84 cells [1]: 90

EEECCEYCCNPACTGCY (modifications not checked) [Peptide 22]
EC50 nM, cGMP response in T84 cells, pH 8 [1]: > 1 mM
